## HIV-1 5' UTR: DMS reactivities by position

Data from the supplement of Ye et al. 2022, doi:10.1038/s41594-022-00746-2.

RNA: 5' end of the HIV-1 NL4-3 genome, made in vitro. Positions 1-437 read:
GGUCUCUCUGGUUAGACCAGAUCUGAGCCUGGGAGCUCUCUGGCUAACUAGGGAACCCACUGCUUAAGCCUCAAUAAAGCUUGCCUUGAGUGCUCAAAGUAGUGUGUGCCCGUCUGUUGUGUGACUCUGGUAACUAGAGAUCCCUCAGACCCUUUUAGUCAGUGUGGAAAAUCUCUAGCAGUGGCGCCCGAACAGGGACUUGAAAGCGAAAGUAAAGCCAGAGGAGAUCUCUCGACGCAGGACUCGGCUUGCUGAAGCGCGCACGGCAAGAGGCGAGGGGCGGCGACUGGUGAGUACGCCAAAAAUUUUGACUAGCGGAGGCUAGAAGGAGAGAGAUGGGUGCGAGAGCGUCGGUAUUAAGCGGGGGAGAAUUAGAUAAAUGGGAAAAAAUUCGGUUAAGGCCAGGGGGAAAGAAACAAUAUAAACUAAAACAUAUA

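Mutant RNA libraries with 1G, 2G or 3G starts, with or without cap, were folded at 37 °C for 30 min. High salt was 300 mM KCl and 5 mM MgCl2, low salt 40 mM KCl and 0.1 mM MgCl2; monomer and dimer were parted on a native gel. Each band was probed in the gel with DMS (170 mM, 15 min, 37 °C), with ethanol as control, and sequenced.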

Values are winsor-normalised DMS reactivities of A and C; higher means more reactive, usually unpaired.
One numbering serves 1G, 2G and 3G.
A position is written with its base.

With A133 (domain PBS) the assay gave 1G capped low-salt dimer 1.54; 3G uncapped low-salt dimer 1.33; 3G capped low-salt dimer 1.21; 3G uncapped high-salt dimer 1.28. C134 (domain PBS) read 1G capped low-salt dimer 0.16; 3G uncapped low-salt dimer 0.19; 3G capped low-salt dimer 0.18; 3G uncapped high-salt dimer 0.17. For A136 (domain PBS) the result was 1G capped low-salt dimer 0.10; 3G uncapped low-salt dimer 0.11; 3G capped low-salt dimer 0.10; 3G uncapped high-salt dimer 0.10. For A138 (domain PBS) the result was 1G capped low-salt dimer 0.11; 3G uncapped low-salt dimer 0.14; 3G capped low-salt dimer 0.11; 3G uncapped high-salt dimer 0.11. A140 (domain PBS) gave 1G capped low-salt dimer 0.34; 3G uncapped low-salt dimer 0.39; 3G capped low-salt dimer 0.35; 3G uncapped high-salt dimer 0.37. C142 (domain PBS) gave 1G capped low-salt dimer 0.08; 3G uncapped low-salt dimer 0.06; 3G capped low-salt dimer 0.07; 3G uncapped high-salt dimer 0.06. C143 (domain PBS) gave 1G capped low-salt dimer 0.05; 3G uncapped low-salt dimer 0.05; 3G capped low-salt dimer 0.03; 3G uncapped high-salt dimer 0.03.

C144 (domain PBS) gave 1G capped low-salt dimer 0.05; 3G uncapped low-salt dimer 0.05; 3G capped low-salt dimer 0.03; 3G uncapped high-salt dimer 0.03. C146 (domain PBS) gave 1G capped low-salt dimer 0.12; 3G uncapped low-salt dimer 0.10; 3G capped low-salt dimer 0.12; 3G uncapped high-salt dimer 0.10. A147 (domain PBS) read 1G capped low-salt dimer 0.45; 3G uncapped low-salt dimer 0.38; 3G capped low-salt dimer 0.41; 3G uncapped high-salt dimer 0.36. A149 (domain PBS) gave 1G capped low-salt dimer 0.09; 3G uncapped low-salt dimer 0.07; 3G capped low-salt dimer 0.07; 3G uncapped high-salt dimer 0.07. C150 (domain PBS) gave 1G capped low-salt dimer 0.05; 3G uncapped low-salt dimer 0.05; 3G capped low-salt dimer 0.04; 3G uncapped high-salt dimer 0.04. C151 (domain PBS) gave 1G capped low-salt dimer 0.80; 3G uncapped low-salt dimer 0.89; 3G capped low-salt dimer 0.72; 3G uncapped high-salt dimer 0.80. With C152 (domain PBS) the assay gave 1G capped low-salt dimer 0.88; 3G uncapped low-salt dimer 0.84; 3G capped low-salt dimer 0.77; 3G uncapped high-salt dimer 0.79.

With A157 (domain PBS) the assay gave 1G capped low-salt dimer 0.97; 3G uncapped low-salt dimer 0.89; 3G capped low-salt dimer 0.88; 3G uncapped high-salt dimer 0.87. With C160 (domain PBS) the assay gave 1G capped low-salt dimer 0.05; 3G uncapped low-salt dimer 0.09; 3G capped low-salt dimer 0.06; 3G uncapped high-salt dimer 0.08. A161 (domain PBS) read 1G capped low-salt dimer 0.49; 3G uncapped low-salt dimer 0.47; 3G capped low-salt dimer 0.44; 3G uncapped high-salt dimer 0.44. For A168 (domain PBS) the result was 1G capped low-salt dimer 0.45; 3G uncapped low-salt dimer 0.50; 3G capped low-salt dimer 0.43; 3G uncapped high-salt dimer 0.45.

The last 2 entries again:

* A161 (domain PBS) -> 1G capped low-salt dimer 0.49; 3G uncapped low-salt dimer 0.47; 3G capped low-salt dimer 0.44; 3G uncapped high-salt dimer 0.44
* A168 (domain PBS) -> 1G capped low-salt dimer 0.45; 3G uncapped low-salt dimer 0.50; 3G capped low-salt dimer 0.43; 3G uncapped high-salt dimer 0.45